Results deposited as PubChem BioAssay AID504761 (Drosophila RNAi Screening Center, 2011)
Test: 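Insect host genes that dengue virus relies on to spread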 (primary screen). System: D.Mel-2 cells from Drosophila. Reagents: long dsRNA against Drosophila genes. Challenge: infection with dengue virus type 2; dose and infection time not stated. Measurement: 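Cells stained for dengue envelope protein and imaged; percent of infected cells per well on duplicate plates, ranked by infection, with stained nuclei counted for cell number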. Scale: infection score: higher = more virus-infected cells; cell count: higher = more cells in the well. Active means: 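Very low infection ranking in both replicate wells (chance probability at most 0.065), then a retest showing infection dropped 1.5-fold or more at p below 0.05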. Calls: active = confirmed: knock-down lowers infection; inactive = not picked or not confirmed.
The screen tested about 22,000 reagents; this is a random part of those with a known target gene and a result. Of all reagents, 116 (0.52%) are marked active. 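Calls depend on retest data that are not deposited; infection was ranked per plate without normalising between plates; the unit of the infection score is not given.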 Raw values are not corrected between plates. Reagents against one gene are numbered here. Names joined by + are all predicted targets of the reagent. No sequences are given here. The record does not give: the amount of reagent, the time to read-out.

The first 2 records as a preview:
gene | reagent no. | infection score, replicate 1 | infection score, replicate 2 | cell count, replicate 1 | cell count, replicate 2 | Call
ND-MNLL | 1 | 4.96 | 9.05 | 5682 | 4754 | inactive
CG6873 | 1 | 0.22 | 0.63 | 5858 | 5702 | inactive

Results, from the first entry:
gene | reagent no. | infection score, replicate 1 | infection score, replicate 2 | cell count, replicate 1 | cell count, replicate 2 | Call
ND-MNLL | 1 | 4.96 | 9.05 | 5682 | 4754 | inactive
CG6873 | 1 | 0.22 | 0.63 | 5858 | 5702 | inactive
CG33096 | 1 | 1.61 | 2.23 | 6224 | 6502 | inactive
CG33096 | 2 | 3.52 | 7.18 | 6531 | 6277 | inactive
Prx6c + CG12896 + Prx6b | 1 | 7.09 | 17.6 | 6434 | 5941 | inactive
Prx6c + CG12896 + Prx6b | 2 | 28.8 | 32 | 5969 | 4365 | inactive
eIF2Balpha | 1 | 4.97 | 1.97 | 6317 | 6584 | inactive
CG15745 (retired record) | 1 | – | 7.68 | 360 | 612 | inactive
E5 | 1 | 2.35 | 2.35 | 5563 | 5482 | inactive
E5 | 2 | 0.88 | 6.43 | 6575 | 6767 | inactive
E5 | 3 | 6.61 | 12.5 | 2133 | 6038 | inactive
Pgant1 | 1 | 34.5 | 12.7 | 5736 | 6940 | inactive
Task6 | 1 | 1.24 | 10.7 | 5967 | 6291 | inactive
CG34282 | 1 | 17.7 | 1.5 | 5568 | 5793 | inactive
Npc2b | 1 | 4.78 | 3.77 | 6128 | 6105 | inactive
CG9522 | 1 | 11.5 | 20.5 | 3982 | 5097 | inactive
swaPsi | 1 | 2.08 | 3.81 | 6054 | 6717 | inactive
CG14071 | 1 | 0.81 | 0.78 | 6798 | 6965 | active
ppan | 1 | 12.3 | 11.7 | 3093 | 5211 | inactive
ppan | 2 | 7.79 | 18 | 1822 | 3307 | inactive
CG5131 | 1 | 2.18 | 6.11 | 733 | 7038 | inactive
CG3589 | 1 | 7.59 | 21.1 | 6008 | 6205 | inactive
CG3589 | 2 | 1.95 | 6.95 | 6255 | 6160 | inactive
